Measurements published in PMC9270327 (Communications Biology, 2022).

Chains of the proteins cited; added tags and fusions are not shown.
UniProt O15393, whole entry: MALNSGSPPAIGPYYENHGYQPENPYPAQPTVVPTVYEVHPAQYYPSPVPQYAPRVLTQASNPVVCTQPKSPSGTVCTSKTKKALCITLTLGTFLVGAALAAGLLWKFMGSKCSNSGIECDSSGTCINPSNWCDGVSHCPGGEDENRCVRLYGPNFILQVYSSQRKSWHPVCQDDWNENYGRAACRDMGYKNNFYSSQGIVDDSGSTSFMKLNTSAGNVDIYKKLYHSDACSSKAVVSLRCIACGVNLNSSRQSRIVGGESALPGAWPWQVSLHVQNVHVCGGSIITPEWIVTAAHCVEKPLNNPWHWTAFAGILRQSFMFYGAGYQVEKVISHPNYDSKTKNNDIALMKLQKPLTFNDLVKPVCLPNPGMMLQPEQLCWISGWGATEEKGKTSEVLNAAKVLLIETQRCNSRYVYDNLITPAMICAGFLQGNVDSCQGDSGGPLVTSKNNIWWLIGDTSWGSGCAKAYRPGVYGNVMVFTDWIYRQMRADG

Legend:
TMPRSS2 [1] = target: T1, TMPRSS2 (Homo sapiens, UniProt O15393)
TMPRSS2 [2] = target: T1, TMPRSS2; remark: listed apart in the source

With CC(=O)N[C@H](CCCNC(=N)N)C(=O)N[C@@H](CC1CCC1)C(=O)NC(CCCNC(=N)N)C(=O)c1nc2ccccc2s1 (stereo partly shown) the “TMPRSS2 activity, Mean (0 nM = 100)” value (TMPRSS2 [1]; inhibitor 0.0167 nM, 0 min in plasma) was 107.855, the “TMPRSS2 activity, Mean (0 nM = 100)” value (TMPRSS2 [1]; inhibitor 0.0167 nM, 30 min in plasma) was 131.865 and the “TMPRSS2 activity, Mean (0 nM = 100)” value (TMPRSS2 [1]; inhibitor 0.0167 nM, 60 min in plasma) was 100.212. The “TMPRSS2 activity, Mean (0 nM = 100)” value (TMPRSS2 [1]; inhibitor 0.0167 nM, 120 min in plasma) was 88.1855, the “TMPRSS2 activity, Mean (0 nM = 100)” value (TMPRSS2 [1]; inhibitor 0.0167 nM, 24 h in plasma) was 94.7157 and the “TMPRSS2 activity, Mean (0 nM = 100)” value (TMPRSS2 [1]; inhibitor 0.0167 nM, 10 d in plasma) was 98.6379. The “TMPRSS2 activity, Mean (0 nM = 100)” value (TMPRSS2 [1]; inhibitor 0.167 nM, 0 min in plasma) was 110.607, the “TMPRSS2 activity, Mean (0 nM = 100)” value (TMPRSS2 [1]; inhibitor 0.167 nM, 30 min in plasma) was 112.031 and the “TMPRSS2 activity, Mean (0 nM = 100)” value (TMPRSS2 [1]; inhibitor 0.167 nM, 60 min in plasma) was 97.9191. For the same molecule, the “TMPRSS2 activity, Mean (0 nM = 100)” value (TMPRSS2 [1]; inhibitor 0.167 nM, 120 min in plasma) was 84.3747, the “TMPRSS2 activity, Mean (0 nM = 100)” value (TMPRSS2 [1]; inhibitor 0.167 nM, 24 h in plasma) was 93.6852 and the “TMPRSS2 activity, Mean (0 nM = 100)” value (TMPRSS2 [1]; inhibitor 0.167 nM, 10 d in plasma) was 98.6274. The “TMPRSS2 activity, Mean (0 nM = 100)” value (TMPRSS2 [1]; inhibitor 1.665 nM, 0 min in plasma) was 106.886, the “TMPRSS2 activity, Mean (0 nM = 100)” value (TMPRSS2 [1]; inhibitor 1.665 nM, 30 min in plasma) was 113.164 and the “TMPRSS2 activity, Mean (0 nM = 100)” value (TMPRSS2 [1]; inhibitor 1.665 nM, 60 min in plasma) was 99.5905. The “TMPRSS2 activity, Mean (0 nM = 100)” value (TMPRSS2 [1]; inhibitor 1.665 nM, 120 min in plasma) was 86.7927, the “TMPRSS2 activity, Mean (0 nM = 100)” value (TMPRSS2 [1]; inhibitor 1.665 nM, 24 h in plasma) was 94.0926 and the “TMPRSS2 activity, Mean (0 nM = 100)” value (TMPRSS2 [1]; inhibitor 1.665 nM, 10 d in plasma) was 97.9533. The “TMPRSS2 activity, Mean (0 nM = 100)” value (TMPRSS2 [1]; inhibitor 16.65 nM, 0 min in plasma) was 102.887, the “TMPRSS2 activity, Mean (0 nM = 100)” value (TMPRSS2 [1]; inhibitor 16.65 nM, 30 min in plasma) was 109.553 and the “TMPRSS2 activity, Mean (0 nM = 100)” value (TMPRSS2 [1]; inhibitor 16.65 nM, 60 min in plasma) was 96.8449. The “TMPRSS2 activity, Mean (0 nM = 100)” value (TMPRSS2 [1]; inhibitor 16.65 nM, 120 min in plasma) was 89.3123, the “TMPRSS2 activity, Mean (0 nM = 100)” value (TMPRSS2 [1]; inhibitor 16.65 nM, 24 h in plasma) was 95.2489 and the “TMPRSS2 activity, Mean (0 nM = 100)” value (TMPRSS2 [1]; inhibitor 16.65 nM, 10 d in plasma) was 97.0792. The “TMPRSS2 activity, Mean (0 nM = 100)” value (TMPRSS2 [1]; inhibitor 166.5 nM, 0 min in plasma) was 65.7145, the “TMPRSS2 activity, Mean (0 nM = 100)” value (TMPRSS2 [1]; inhibitor 166.5 nM, 30 min in plasma) was 82.4901 and the “TMPRSS2 activity, Mean (0 nM = 100)” value (TMPRSS2 [1]; inhibitor 166.5 nM, 60 min in plasma) was 70.0482. The “TMPRSS2 activity, Mean (0 nM = 100)” value (TMPRSS2 [1]; inhibitor 166.5 nM, 120 min in plasma) was 62.4045, the “TMPRSS2 activity, Mean (0 nM = 100)” value (TMPRSS2 [1]; inhibitor 166.5 nM, 24 h in plasma) was 65.047 and the “TMPRSS2 activity, Mean (0 nM = 100)” value (TMPRSS2 [1]; inhibitor 166.5 nM, 10 d in plasma) was 79.9649. The “TMPRSS2 activity, Mean (0 nM = 100)” value (TMPRSS2 [1]; inhibitor 1665 nM, 0 min in plasma) was 16.8007, the “TMPRSS2 activity, Mean (0 nM = 100)” value (TMPRSS2 [1]; inhibitor 1665 nM, 30 min in plasma) was 29.6147 and the “TMPRSS2 activity, Mean (0 nM = 100)” value (TMPRSS2 [1]; inhibitor 1665 nM, 60 min in plasma) was 24.841. The “TMPRSS2 activity, Mean (0 nM = 100)” value (TMPRSS2 [1]; inhibitor 1665 nM, 120 min in plasma) was 22.2652, the “TMPRSS2 activity, Mean (0 nM = 100)” value (TMPRSS2 [1]; inhibitor 1665 nM, 24 h in plasma) was 26.7809 and the “TMPRSS2 activity, Mean (0 nM = 100)” value (TMPRSS2 [1]; inhibitor 1665 nM, 10 d in plasma) was 39.3154. The “increase in Ki values against TMPRSS2” value (TMPRSS2 [2]; incubation in human serum during the course of 10 days) was 1.4–1.8 fold, the “TMPRSS2 activity, Mean (0 nM = 100)” value (TMPRSS2 [2]; inhibitor 0.0167 nM, 0 min in serum) was 99.4796 and the “TMPRSS2 activity, Mean (0 nM = 100)” value (TMPRSS2 [2]; inhibitor 0.0167 nM, 30 min in serum) was 99.2942. For the same molecule, the “TMPRSS2 activity, Mean (0 nM = 100)” value (TMPRSS2 [2]; inhibitor 0.0167 nM, 60 min in serum) was 100.1538, the “TMPRSS2 activity, Mean (0 nM = 100)” value (TMPRSS2 [2]; inhibitor 0.0167 nM, 120 min in serum) was 102.2488 and the “TMPRSS2 activity, Mean (0 nM = 100)” value (TMPRSS2 [2]; inhibitor 0.0167 nM, 24 h in serum) was 99.6321. For the same molecule, the “TMPRSS2 activity, Mean (0 nM = 100)” value (TMPRSS2 [2]; inhibitor 0.0167 nM, 10 d in serum) was 92.6772, the “TMPRSS2 activity, Mean (0 nM = 100)” value (TMPRSS2 [2]; inhibitor 0.167 nM, 0 min in serum) was 103.7358 and the “TMPRSS2 activity, Mean (0 nM = 100)” value (TMPRSS2 [2]; inhibitor 0.167 nM, 30 min in serum) was 103.4579. The “TMPRSS2 activity, Mean (0 nM = 100)” value (TMPRSS2 [2]; inhibitor 0.167 nM, 60 min in serum) was 103.3236, the “TMPRSS2 activity, Mean (0 nM = 100)” value (TMPRSS2 [2]; inhibitor 0.167 nM, 120 min in serum) was 104.1407 and the “TMPRSS2 activity, Mean (0 nM = 100)” value (TMPRSS2 [2]; inhibitor 0.167 nM, 24 h in serum) was 99.3926. For the same molecule, the “TMPRSS2 activity, Mean (0 nM = 100)” value (TMPRSS2 [2]; inhibitor 0.167 nM, 10 d in serum) was 95.9836, the “TMPRSS2 activity, Mean (0 nM = 100)” value (TMPRSS2 [2]; inhibitor 1.665 nM, 0 min in serum) was 111.0273 and the “TMPRSS2 activity, Mean (0 nM = 100)” value (TMPRSS2 [2]; inhibitor 1.665 nM, 30 min in serum) was 103.0953. The “TMPRSS2 activity, Mean (0 nM = 100)” value (TMPRSS2 [2]; inhibitor 1.665 nM, 60 min in serum) was 102.9116, the “TMPRSS2 activity, Mean (0 nM = 100)” value (TMPRSS2 [2]; inhibitor 1.665 nM, 120 min in serum) was 102.1015 and the “TMPRSS2 activity, Mean (0 nM = 100)” value (TMPRSS2 [2]; inhibitor 1.665 nM, 24 h in serum) was 99.8014. The “TMPRSS2 activity, Mean (0 nM = 100)” value (TMPRSS2 [2]; inhibitor 1.665 nM, 10 d in serum) was 94.5670, the “TMPRSS2 activity, Mean (0 nM = 100)” value (TMPRSS2 [2]; inhibitor 16.65 nM, 0 min in serum) was 104.2295 and the “TMPRSS2 activity, Mean (0 nM = 100)” value (TMPRSS2 [2]; inhibitor 16.65 nM, 30 min in serum) was 102.4089. The “TMPRSS2 activity, Mean (0 nM = 100)” value (TMPRSS2 [2]; inhibitor 16.65 nM, 60 min in serum) was 102.8072.

Like-named read-outs stand apart in the source and are kept apart here.
